Results deposited as PubChem BioAssay AID624099 (ICCB-Longwood, 2012)
Test: 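Human genes that papillomavirus E2 requires to repress the HPV18 LCR promoter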 (primary screen). System: human C33A cervical carcinoma cells (HPV-negative) stably expressing BPV1 E2 and an HPV18 LCR luciferase reporter. Reagents: siRNA pool against human genes, 40 nM. Time to read-out: 72 h. Measured: 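HPV18 LCR reporter light per well, converted to plate-wise z-scores that exclude control wells, and averaged over triplicate plates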. Reading the numbers: mean z-score and z-score: higher = stronger reporter signal, weaker E2 silencing. Rule for the call: 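Hit if mean z-score reaches 2 and two or more of three replicate z-scores also reach 2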.
Shown is an unselected part of about 21,000 reagents. 497 of all reagents (2.4%) were called active. 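Higher z means weaker E2 silencing; only reporter increases were scored, and knock-downs that hurt cell survival may mask genuine repressor factors.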

The first 2 entries, ahead of the listing:
gene symbol	mean z-score	z-score, replicate A	z-score, replicate B	z-score, replicate C	Call
LOC388154 (retired record)	1.14	1.33	0.81	1.28	inactive
UBE2J2	0.28	0.13	0.49	0.24	inactive

Main list, repeating the preview:
gene symbol	mean z-score	z-score, replicate A	z-score, replicate B	z-score, replicate C	Call
LOC388154 (retired record)	1.14	1.33	0.81	1.28	inactive
UBE2J2	0.28	0.13	0.49	0.24	inactive
TMEM59	0.4	0.33	0.6	0.27	inactive
UVSSA	0.57	1.07	0.67	-0.04	inactive
SLC13A4	0.71	0.77	0.88	0.48	inactive
ACVRL1	1.6	1.75	1.58	1.47	inactive
DNA2	-1.22	-1.41	-1.1	-1.15	inactive
TSPYL2	-0.33	-0.95	-0.37	0.34	inactive
DUBR	-1.19	-1.27	-0.86	-1.45	inactive
SELPLG	-0.64	-0.37	-0.73	-0.82	inactive
PPP3R1	-0.53	-0.22	-0.82	-0.55	inactive
LMF2	-2.42	-2.34	-2.22	-2.7	inactive
RPP30	-1.34	-1.24	-1.35	-1.42	inactive
LOC388461 (retired record)	-0.65	-0.77	-0.74	-0.45	inactive
LGALS17A	-0.08	-0.03	-0.52	0.3	inactive
ATP6V0D1	1.57	1.55	1.73	1.43	inactive
DOT1L	0.38	0.45	0.5	0.19	inactive
ACTR8	1.05	0.86	1.19	1.1	inactive
PMPCB	0.64	0.59	0.78	0.56	inactive
TLDC2	-1.19	-1.4	-1.05	-1.1	inactive
PMEL	-0.49	-0.53	-0.62	-0.32	inactive
MSANTD4	-0.29	-0.54	-0.38	0.05	inactive
NUDT16	-1.37	-1.41	-1.36	-1.33	inactive
SOX5	0.81	0.83	0.67	0.93	inactive
EMSY	-1.16	-1.16	-1.14	-1.16	inactive
TM9SF4	-0.97	-1.06	-0.89	-0.96	inactive
LRIG3	-0.91	-0.72	-1.18	-0.82	inactive
GAMT	1.23	1.44	0.91	1.33	inactive
CLPTM1L	0.97	0.7	1.07	1.13	inactive
OPRK1	-0.09	0.18	-0.31	-0.16	inactive
LIAT1	0.11	0.06	0.02	0.25	inactive
LOC401391 (retired record)	0.31	0.28	0.54	0.12	inactive
WDR88	1.35	1.72	1.07	1.25	inactive
CCDC167	0.22	-0.01	0.42	0.24	inactive
DPY30	1.16	1.31	0.98	1.21	inactive
KRT31	0.69	0.64	0.76	0.68	inactive
FLJ32154 (retired record)	0.21	0.66	0.17	-0.19	inactive
CYP4F24P	-0.01	0.09	-0.09	-0.03	inactive
NFKBIE	0.95	1.27	0.94	0.63	inactive
CLN8	-0.21	-0.06	-0.31	-0.26	inactive
IGHV3OR16-17	0.99	1.1	0.86	1.02	inactive
TBCB	-0.83	-0.66	-0.96	-0.87	inactive
CHCHD7	0.46	0.92	0.19	0.28	inactive
ATP5F1E	0.2	0.29	0.26	0.05	inactive
COPG1	-1.18	-1.51	-1.01	-1.01	inactive
KCNT1	-0.56	-0.65	-0.39	-0.65	inactive
DNASE2	-1.41	-0.99	-1.81	-1.43	inactive
FGFR1	-1.06	-0.37	-1.5	-1.3	inactive
CLN6	-0.56	-0.52	-0.68	-0.47	inactive
AARS2	0.21	0.5	0.08	0.06	inactive
TBC1D17	-0.13	0.21	-0.47	-0.13	inactive
DHX15	-0.97	-1.02	-0.84	-1.03	inactive
CXCL16	-0.16	-0.13	0.06	-0.41	inactive
PSME4	-0.18	-0.11	0	-0.43	inactive
ABL2	-0.47	-0.5	-0.46	-0.45	inactive
LONP1	0.68	0.55	0.98	0.52	inactive
GOLGB1	0.83	0.93	0.97	0.6	inactive
